This experiment addresses SARS-CoV-2 S1-RBD (adsorbed in ELISA) (SARS-CoV-2 Wuhan). Nature of the experiment: ELISA, adsorbed antigen, ACE2-Fc titrated. (In general: In an ELISA, binding on a coated surface is turned into a signal by an enzyme label.)

For “ACE2-Fc (human ACE2 aa18-740 fused to human IgG1 Fc) (from UniProt Q9BYF1 18-740) (Fc fusion)”, the EC50 (commonly the midpoint of the concentration-response curve) was found to be 0.32 nM.

(Values after US20240270826A1.)
